Like-named read-outs stand apart in the source and are kept apart here.
What was measured:
CD8+ T cells [1] = assay: Meta-analysis of published SARS-CoV-2 CD8 T cell epitope data curated in the IEDB (25 studies); assay type: cell-based, human; conditions: SARS-CoV-2-derived CD8 epitopes; dominant = recognized by 3 or more donors/different studies
CD8+ T cells [2] = conditions: cited from earlier work; for Restriction: T cell type (CD4 or CD8) recognizing the SARS-CoV-2 epitope

## 904 (SALWEIQQVV) [compound 904]
CD8+ T cells [1]
  Dominant: Yes (more dominant epitopes are defined by being recognized by 3 or more donors/different studies)
CD8+ T cells [2]
  Restriction: CD8

## 1793 (SALWEIQQVV) [compound 1793]
CD8+ T cells [2]; CD8R (D) megapool epitopes, dominant = recognized by 3 or more donors/different studies
  Dominant: Yes (more dominant epitopes are defined by being recognized by 3 or more donors/different studies)

## 1046 (LEIPRRNVATL) [compound 1046]
CD8+ T cells [2]
  Restriction: CD8

## 3028 (SALWEIQQVV) [compound 3028]
CD8+ T cells [2]; CD8RE megapool peptides (non-spike SARS-CoV-2 antigens), dominant epitope Yes/No
  Dominant: Yes (more dominant epitopes are defined by being recognized by 3 or more donors/different studies)

— US20250231185A1, “Coronavirus T Cell Epitopes, Megapools and Uses Thereof” (La Jolla Institute for Immunology, priority 2021, published 2025)
